Measurements reported in paper PMC7354218 (ACS infectious diseases, 2020).

System: reduced nicotinamide adenine dinucleotide phosphate
Assay: purified protein, by the assay type
Settings: pH 8.0; varied: cofactor

NpsB (Klebsiella oxytoca) was tested, and the Km was “(5.7 ± 1.7) × 10^1 uM”, the kcat was 0.058 s⁻¹ and the kcat/Km was 1000 M⁻¹ s⁻¹.
